Anti-infective test results gathered from many reports (values: NIAID ChemDB through PubChem).

All rows: tests on isolated targets; species: Pneumocystis carinii

Lines come from different laboratories, so protocols vary.

compound | dose | method | protein | measure | value
CCCNC(=O)c1ccc(NCc2cnc3nc(N)nc(N)c3n2)cc1 |  |  | DHFR | IC50 | 3.1 µM
COc1ccc(Cc2cnc(N)nc2N)cc1OCCC(=O)NCC(=O)O |  |  | DHFR | IC50 | 9.3 µM
O=CNc1ccc(S(=O)(=O)c2ccc(NC=O)cc2)cc1 |  |  | DHPS | IC50 | >10 µM
COc1cc(Cc2cnc(N)nc2N)cc(OCc2ccccc2)c1OC |  |  | DHFR | IC50 | 13.9 µM
CN(Cc1cnc2nc(N)nc(N)c2n1)c1ccc(C(=O)N[C@@H](CCC(=O)N[C@@H](CCC(=O)N[C@@H](CCC(=O)O)C(=O)O)C(=O)O)C(=O)O)cc1 |  |  | DHFR | IC50 | 0.0002 µM
COc1cc(Cc2cnc(N)nc2N)cc(OC)c1SC |  |  | DHFR | IC50 | 19 µM
Nc1ccc(S(=O)(=O)Nc2cnc3ccccc3n2)cc1 |  | HPLC | Oxidosqualene cyclase | IC50 | 425 µM
Nc1nc(N)c(-c2ccc(Cl)c(Cl)c2)c(/C=C/c2ccc3ccccc3c2)n1 |  |  | DHFR | IC50 | 12.8 µM
COc1cc(Cc2cnc(N)nc2N)c2c(c1Br)OC=CC2 |  |  | DHFR | IC50 | 5.9 µM
CC(=O)Nc1ccc(S(=O)(=O)NC(=O)NCCC(C)C)cc1 |  |  | DHPS | IC50 | >10 µM
Cc1cc(NS(=O)(=O)c2ccc(N)cc2)no1 |  | HPLC | Oxidosqualene cyclase | IC50 | 440 µM
CCOc1cc(Cc2cnc(N)nc2N)cc(OCCNS(=O)(=O)c2ccc(NC(C)=O)cc2)c1OC |  |  | DHFR | IC50 | 2.4 µM
Nc1nc(N)c(-c2ccc(Cl)cc2)c(CNc2cccc([N+](=O)[O-])c2)n1 |  |  | DHFR | IC50 | 17 µM
NC(=O)NS(=O)(=O)c1ccc(N)cc1 |  |  | DHPS | IC50 | 0.3 µM
CN(Cc1cnc2nc(N)nc(N)c2n1)c1ccc(C(=O)O)cc1 |  |  | DHFR | IC50 | 0.94 µM
N=C(N)c1ccc(OCCCCCOc2ccc(C(=N)N)cc2)cc1 | 10 µM |  | Dihydroorotate dehydrogenase | inhibition | 0%
Nc1ccc(S(=O)(=O)Nc2cc(C(F)(F)F)cc(C(F)(F)F)c2)cc1 |  |  | DHPS | IC50 | 0.8 µM
Cc1cnc2nc(N)nc(N)c2n1 |  |  | DHFR | IC50 | >20 µM

Again, the opening 2 rows:

compound	dose	method	protein	measure	value
CCCNC(=O)c1ccc(NCc2cnc3nc(N)nc(N)c3n2)cc1			DHFR	IC50	3.1 µM
COc1ccc(Cc2cnc(N)nc2N)cc1OCCC(=O)NCC(=O)O			DHFR	IC50	9.3 µM

An empty or dashed field is not shown. Percent inhibition refers to the dose given; in toxicity tests it is the harm to the cells. ICn: concentration for n% inhibition.